Pooled drug test results. Numbers come from NIAID ChemDB, via PubChem.

All rows: toxicity to cultured cells; cell line: MT-4; read by: MTT / absorbance; measure: CC50

Lines come from different laboratories, so protocols vary.

compound | value
COc1cc(/C=N/NC(=O)c2csc(N3N=C(c4ccccc4)CC3c3ccc(Cl)cc3)n2)ccc1O | 60.1 µM
Cc1cn([C@H]2C[C@H](N=[N+]=[N-])[C@@H](CO)O2)c(=O)[nH]c1=O | 9.4 µM
CCc1c(CC23CC4CC(CC(C4)C2)C3)nc(SCC(=O)Nc2ccc(C#N)cc2)[nH]c1=O | 5.49 µM
O=C1C=C2C[C@H](C3=C4C=C[C@@H]5C[C@@]4(OC3=O)[C@H]3CCCN53)[C@@H]3C[C@@]2(O1)[C@H]1CCCN31 | 97.9 µM
CC(C)Nc1cccnc1N1CCN(C(=O)c2cc3cc(NS(C)(=O)=O)ccc3[nH]2)CC1 | 30.4 µM
CN(CCc1c[nH]c2ccccc12)[C@@H]1CC2=CC(=O)O[C@@]23C[C@@H]1N1CCC[C@@H]13 | >100 µM
O=C(N/N=C/c1ccccc1Cl)c1csc(N2N=C(c3ccccc3)CC2c2ccc(Cl)cc2)n1 | >125 µM
COC[C@@H](c1ccc(C(F)(F)F)cc1)N1CCN(C2(C)CCN(C(=O)c3c(C)ncnc3C)CC2)C[C@@H]1C | >5 µM
Cc1ccc(C(=O)Nc2ccc(N3C(=O)c4ccc(Cl)cc4C3=O)c(C)c2)cc1 | 0.616 µM
O=C(N/N=C/c1ccc(Cl)cc1Cl)c1csc(N2N=C(c3ccccc3)CC2c2ccc(Cl)cc2)n1 | 94.9 µM
CCc1c(CC23CC4CC(CC(C4)C2)C3)nc(SCC(=O)Nc2ccc(C(N)=O)cc2)[nH]c1=O | ≥33.5 µM
O=C(N/N=C/c1ccc([N+](=O)[O-])cc1)c1csc(N2N=C(c3ccccc3)CC2c2ccc(Cl)cc2)n1 | 105.9 µM
N#C/C=C1/c2cc(S)cc([N+](=O)[O-])c2-c2c1cc(S(=O)(=O)NCc1ccccc1)cc2[N+](=O)[O-] | 92.78 µM
O=C(N/N=C/c1cccc(Cl)c1)c1csc(N2N=C(c3ccccc3)CC2c2ccc(Cl)cc2)n1 | 64.5 µM
CCc1c(CC23CC4CC(CC(C4)C2)C3)nc(SCC(=O)c2ccccc2)[nH]c1=O | 20.42 µM
Cc1cc(NS(=O)(=O)c2ccc(Cl)cc2)ccc1N1C(=O)c2ccc(Cl)cc2C1=O | 0.22 µM
O=C(N/N=C/c1ccccc1[N+](=O)[O-])c1csc(N2N=C(c3ccccc3)CC2c2ccc(Cl)cc2)n1 | >125 µM
Cc1cc(NC(=O)c2ccccc2)ccc1N1C(=O)c2ccc(Cl)cc2C1=O | 0.638 µM
Cc1cn([C@H]2C[C@H](N=[N+]=[N-])[C@@H](CO)O2)c(=O)[nH]c1=O | >7.06 µM

For reference, 3 entries again:

compound,value
Cc1cc(NS(=O)(=O)c2ccc(Cl)cc2)ccc1N1C(=O)c2ccc(Cl)cc2C1=O,0.22 µM
Cc1cn([C@H]2C[C@H](N=[N+]=[N-])[C@@H](CO)O2)c(=O)[nH]c1=O,>7.06 µM
CCc1c(CC23CC4CC(CC(C4)C2)C3)nc(SCC(=O)Nc2ccc(C#N)cc2)[nH]c1=O,5.49 µM

CCn: concentration that lowers growth or viability of the cells by n%.